Measured values from several laboratories, pooled; numbers as filed in NIAID ChemDB.

All rows: cytotoxicity tests; cells: PBL; read-out: CC50

Lines come from different laboratories, so protocols vary. CCn: concentration that lowers growth or viability of the cells by n%. a–b is a range or a potency band. Blank or dashed fields: not listed here.

structure,read by,value
C[C@]12CC[C@H](O)CC1=CC[C@@H]1[C@@H]2CC[C@]2(C)C(=O)CC[C@@H]12,,>100 µM
CC(C)C[C@H](NC(=O)[C@H](Cc1ccccc1)NC(=O)CNC(=O)CNC(=O)[C@@H](N)Cc1ccc(O)cc1)C(=O)N[C@@H]1[C@@H](O)[C@H](O)[C@@H](CO)O[C@H]1O,,>140 µM
CCN(CC)CCCC(C)Nc1ccnc2cc(Cl)ccc12,,>100 µM
C[C@@H](Cn1cnc2c(N)ncnc21)OCP(=O)(O)O,,>300 µM
Nc1ncnc2c1ncn2[C@@H]1CC[C@@H](O)[C@H]1O,,0.023 µM
O=c1c2ccccc2n2nnc3ccc(NCCCN4CCN(CCCNc5ccc6nnn7c8ccccc8c(=O)c5c67)CC4)c1c32,,>1.5 µM
CCOCn1c(Cc2ccccc2)c(C(C)C)c(=O)[nH]c1=O,,95 µM
CC[C@H](C)C=C(C)/C=C/C1=CC2=C(Cl)C(=O)[C@](C)(O)[C@H](CC(C)=O)C2=CO1,,>25 µM
Cc1cn([C@H]2C[C@H](N=[N+]=[N-])[C@@H](CO)O2)c(=O)[nH]c1=O,,44 µM
CCCCC#CCSc1ccccc1OC(C)=O,,100–200 µM
Nc1ncnc2c1ncn2[C@H]1C=C[C@@H](CO)O1,,14 µM
CCN(CC)C(=O)OCC1CN(C(=O)c2cc(OC)c(OC)c(OC)c2)CCN1C(=O)c1cc(OC)c(OC)c(OC)c1,trypan blue,280 µM
COc1ccc(C(=O)N2CCN(c3ccc4c(c3)CCC(=O)N4)CC2)cc1OC,,>100 µg/mL
C=C(C)OC(=O)N1c2cc(Cl)ccc2NC(=S)C1(C)C,,25 µM
CC(=O)c1c(O)c(C)c(O)c(Cc2c(O)c3c(c(C(=O)/C=C/c4ccccc4)c2O)OC(C)(C)C=C3)c1O,ATP / luminescence,4.244 µM
CC(C)C[C@H](NC(=O)[C@H](Cc1ccccc1)NC(=O)CNC(=O)CNC(=O)[C@@H](N)Cc1ccc(O)cc1)C(=O)N[C@@H]1O[C@H](CO)[C@@H](O)[C@H](O)[C@H]1O,,>140 µM
COC(=O)[C@H](C)NP(=O)(OC[C@@H]1CC[C@H](n2cnc3c(N)ncnc32)O1)Oc1ccccc1,,4.6 µM
C1CNCCNCCCN(CCCN2CCCNCCNCCCNCC2)CCNC1,,>1865 µM
NC(=O)c1cccc(N=O)c1,,>50 µM
Nc1ccn([C@@H]2O[C@H](CO)C[C@@H]2F)c(=O)n1,,11 µg/mL
Nc1ccn([C@H]2CC[C@@H](CO)O2)c(=O)n1,,11 µM
O=C(O)c1cc(O)cc(O)c1N=Nc1ccc(/C=C/c2ccc(N=Nc3c(O)cc(O)cc3C(=O)O)cc2S(=O)(=O)O)c(S(=O)(=O)O)c1,,125 µg/mL
CC(C)[C@H](NC(=O)N(C)Cc1ccccn1)C(=O)N[C@@H](Cc1ccccc1)[C@H](O)[C@H](O)[C@H](Cc1ccccc1)NC(=O)[C@@H](NC(=O)N(C)Cc1ccccn1)C(C)C,,100 µM
O=c1[nH]cnc2c1ncn2[C@H]1CC[C@@H](CO)O1,,>250 µM
O=C1CN=C(c2ccc[nH]2)c2cc(Cl)ccc2N1,,120 µM
CC(C)C[C@H](NC(=O)[C@H](Cc1ccccc1)NC(=O)CNC(=O)CNC(=O)[C@@H](N)Cc1ccc(O)cc1)C(=O)OC[C@H]1O[C@@H](OCc2ccccc2)[C@H](O)[C@@H](O)[C@@H]1O,,>140 µM
Nc1nc(N)c2ncn(CCOCP(=O)(O)O)c2n1,,12 µM
CC(=O)N(O)CCCCCNC(=O)CCC(=O)N(O)CCCCCNC(=O)CCC(=O)N(O)CCCCCN,,30–100 µM
NC(=O)c1ncn([C@@H]2O[C@H](CO)[C@@H](O)[C@H]2O)n1,,>20 µM
CCOCn1c(Sc2cc(C)cc(C)c2)c(CC)c(=O)[nH]c1=S,,33 µM
CCc1cc(NCc2nc3c(Cl)ccc(Cl)c3o2)c(=O)[nH]c1C,,>60 µM

For reference, 4 entries again:

{"structure": "O=C(O)c1cc(O)cc(O)c1N=Nc1ccc(/C=C/c2ccc(N=Nc3c(O)cc(O)cc3C(=O)O)cc2S(=O)(=O)O)c(S(=O)(=O)O)c1", "value": "125 µg/mL"}
{"structure": "CC(C)C[C@H](NC(=O)[C@H](Cc1ccccc1)NC(=O)CNC(=O)CNC(=O)[C@@H](N)Cc1ccc(O)cc1)C(=O)OC[C@H]1O[C@@H](OCc2ccccc2)[C@H](O)[C@@H](O)[C@@H]1O", "value": ">140 µM"}
{"structure": "CC(=O)c1c(O)c(C)c(O)c(Cc2c(O)c3c(c(C(=O)/C=C/c4ccccc4)c2O)OC(C)(C)C=C3)c1O", "read by": "ATP / luminescence", "value": "4.244 µM"}
{"structure": "CCOCn1c(Cc2ccccc2)c(C(C)C)c(=O)[nH]c1=O", "value": "95 µM"}